Assay: general procedure: Fmoc solid-phase peptide synthesis; PAL-Ala-aminomethyl-polystyrene(1%)divinylbenzene (0.5 mmol/g) or TentaGel Rink-amide (0.18 mmol/g); DIC/HOBt or TBTU/HOBt with DIEA
Conditions: whole synthesis, scale of the general procedure 0.02 mmol or 0.0076 mmol

Q: Which “final purity (method not given)” value does the source give for HGEGTFTSDLSKQMEEEAVRLFIEWLKAGR-NH2 here?
A: ≧97%

Q: Which “final purity (method not given)” value does the source give for HGEGTFTSDLSKQMEEEAVRLFIEWLKNGR-NH2 here?
A: ≧96%
